# Data: the supplement of paper PMC12637763
# Changes are numbered by the printed parent chain. The list shows a part of the results. Env chains of viruses from a treatment-interruption trial, translated from the printed DNA. IC50 / IC80 of two broadly neutralizing antibodies; lower = more sensitive virus; >50 µg/ml means not reached and <0.001 µg/ml is below the lowest dose. No active / inactive call.
# B1: HIV-1 Env, rebound clone, placebo arm (protein)
# chain: MRVKGIKKNYQRLWRWGTMLLGLLMICNAEKLWVTVYYGVPVWKEATTTLFCASDAKGYDTEAHNVWATHACVPTDPNPQEIDLVNVNESFNMWKNNMVEQMHQDIISLWDQSLKPCVRLTPLCVNLNCTDLKKGNSTQNTTNTKLEEKGEGEVKNCSFNITTNYNDKKQQEYALFYNLDVVKVGDNDTSYRLISCNTSVVTQACPKINFDPIPIHYCAPAGFAILKCKDKKFNGTGICTNVSTVQCTHGIKPVVSTQLLLNGSLAEEEVVIRSENFTNNAKTIIVQLNEAVAINCIRPNNNTRKSIHMGPGKAFYTTGDIIGDIRQAHCNISKGEWNKTLSRVVEKLQGQFGNKTINFNQSSGGDPEIVMHSFNCAGEFFYCNTTGLFNSTWISPPNSTWNNTWNSTENIRENITLPCRIKQIVNRWQEVGKAIYAPPIKGPISCSSNITGILLTRDGGNDNITNNTETFRPGGGDMRDNWRSELYKYKVVEIKPLGVAPTKAKRRVVQREKRAVGLGAVLFGFLGAAGSTMGAASVTLTVQARQLLSGIVQQQNNLLRAIEAQQHLLQLTVWGIKQLQARVLAVERYLRDQQLLGLWGCSGKLICTTAVPWNTSWSNKSMTQIWNHTTWMQGEREIENYTNIIYNLIEDSQNQQEQNEKELLELDKWASLWNWFDITNWLWYIKLFIMIVGGLIGLRIVFAVLSIVKRVRQGYSPLSLQTLLPTQRGPDRPEGIEEGGGERDRDRSRRLVDGFLALIWDDLRSLCLFSYHRLRDLLLIVTRIVGLLGRRGWDILKYWWNLLQYWIQELKNSAVSLLNYTAIAVAEGTDRIIEVLQRIFRAVLHIPTRIRQGLERTLV
# B2: HIV-1 Env, rebound clone, placebo arm (protein)
# chain: MRVMGTQRNYPRFWNWVMIIFWIIIIGNANQLWVTVYYGVPVWKEAETTLFCASDAKAYDTEVHNVWATHACVPTDPDPREIPLENVTEKFNIWKNDMVEQMHQDIISLWDQSLKPCVKLTPLCVTLNCTNINATGSIVGNSTDMKNCSFNVTTIRRDKMQKEYALFYNLDIVQIDNSDNSSYRLVSCNTSVITQACPKVSFEPIPIHYCAPAGFAIIKCNNKTFNGTGPCTNVSTVQCTHGIKPVVSTQLLLNGSLAEEKIMIRSENITNSAKTIIVQLNESVTINCTRPGNNTRKSIRIGPGQTYYATGAIIGDIRQAHCNVSKEKWMSTLQKVAKQLGEHFISAQNISFNSSSGGDVEITTHSFICGGEFFYCNTTGLFNSTWMIRNNTYNENSSNESGTITLQCRIKQYVNLWQRVGRAMYAPPIRGDINCTSNITGLLLTRDGGGNNESETFRPIGGDMRDNWRSELYKYKVVKIEPLGVAPTYAKRRVVGREKRAVGLGAVFLGFLGAAGSTMGAASITLTVQARQLLSGIVQQQSNLLKAIEAQQHLLRLTVWGIKQLQARVLALERYLRDQQLLGIWGCSGKLICPTTVPWNSSWSNKTFNEIWDNMTWLQWDKEISNYTETIYALIEQSQNQQEKNEQDLLALDKWANLWNWFDITKWLWYIKIFIMIVGGLIGLRIVFAVFSLVNRVRQGYSPLSFQILTHRQREPDRPGRIEEEGGEQDRDRSVRLVSGFLALAWDDLRSLCLFLYHRLRDSVLIATRGVELLGHSILKGLRLGWEALKHLWNLLSYWSQELKNSAISLFDTIAIAVANWTDRAIELGQAAGRAILHIPRRIRQGLERALL
# B3: HIV-1 Env, rebound clone, placebo arm (protein)
# chain: MRVMGMLRNWQHLEKWGLLFLGLLIICSAKDNLWVTVYYGVPVWKEATTTLFCASDAKGYDKEAHNVWATHACVPTDPNPQEIWLKNVTENFNIWRNDMVEQMHTDIISLWDESLKPCVKITPLCVTLNCTNAKFNSTSANSTQEEPGAVQNCTFNTTTELRDKKQKVYALFYRLDLIPLKENNASNNASNEYILINCNTSIIKQACPKVSWDPIPIHYCAPAGYAILKCRDKKFNGTGPCKNVSTVQCTHGVKPVVSTQLLLNGSLAEEDIVIRSENISDNAKTIIVSLNEPVQINCTRPGNNTRKGIHLGPGQTFYARGDIIGDIRKAHCKINKSQWNKTLAQVSTELKSLLNITGVVFKPPVGGDLEVTMHSFNCRGEFFYCNTSGLFNFSYSVPTNETITINETITIPCKIKQIINMWQGVGQAMYAPPIAGNITCNSNITGILLIRDGGPNSTNNDTFRPGGGDMRDNWRSELYKYKVVEIEPLGVAPTRARRQVVRRERRAVGIGAVFLGFLGAAGSTMGAASITLTVQARQLLSGIVQQQRNLLQAIEAQQHLLKLTVWGIKQLQARVLAVERYLKDQQLLGIWGCSGKLICTTSVPWNSSWSNRSLDEIWNNMTWIDWEREISNYSQEIYKLIEQSQNQQEKNEQELLALDKWASLWSWFDITNWLWYIKIFIMIVGGLIGLRIVFAVLAIVNRVRKGYSPLSLQTLIPSPRGPDRPDGIEEGGGEQGRDRSVRLVTGFLALVWDDLRNLCLFSYRHLRDFILIAARVVDRGLRRGWEILKYLWNLTKYWSQELKNSATSLFNSTAIVVAEGTDRIIEALQAVIRAVLHIPRRIRQGFERALL
# B4: HIV-1 Env, rebound clone, placebo arm (protein)
# chain: MRVKGIKKNYQRLWRWGTMLLGLLMICNAEKLWVTVYYGVPVWKEATTTLFCASDAKGYDTEAHNVWATHACVPTDPNPQEIDLVNVNESFNMWKNNMVEQMHQDIISLWDQSLKPCVRLTPLCVKLNCTDLKKGNSTQNTTNATKLEEKGEGEVKNCSFNITTNYNDKKQQEYAFFYNLDVVKVGDNDTSYRLISCNTSVVTQACPKINFDPIPIHYCAPAGFAILKCKDKKFNGTGICTNVSTVQCTHGIKPVVSTQLLLNGSLAEEEVVIRSENFTNNAKTIIVQLNEAVAINCTRPNNNTRKSIHMGPGKAFYTTGDIIGDIRQAHCNISKGEWNKTLSRVVEKLQGQFGNKTINFNQSSGGDPEIVMHSFNCAGEFFYCNTTGLFNSTWISPSNSTWNNTWNSTENIGENITLPCRIKQIVNRWQEVGKAIYAPPIKGPISCSSNITGILLTRDGGNDNITNNTETFRPGGGDMRDNWRSELYKYKVVEIKPLGVAPTKAKRRVVQREKRAVGLGAVLFGFLGAAGSTMGAASVTLTVQARQLLSGIVQQQNNLLKAIEAQQHLLQLTVWGIKQLQARVLAVERYLRDQQLLGLWGCSGKLICTTAVPWNTSWSNKSMTQIWNHTTWMQWEREIDNYTNIIYNLIEDSQNQQEQNEKELLELDKWASLWNWFDITNWLWYIKLFIMIVGGLIGLRIVFAVLSIVKRVRQGYSPLSLQTLLPTQRGPDRPEGIEEGGGERDRDRSRRLVDGFLALIWDDLRSLCLFSYHRLRDLLLIVTRIVGLLGRRGWDILKYWWNLLQYWIQELKNSAVSLLNYTAIAVAEGTDRIIEVLQRIFRAVLHIPTRIRQGLERALV
# B5: HIV-1 Env, rebound clone, placebo arm (protein)
# chain: B4 chain with K126N, F176L, T298I, E337K, G413E, K561R, D640E, A858T
# B6: HIV-1 Env, rebound clone, placebo arm (protein)
# chain: MRVMGTQRNYPLFWNWVIIIFWIIIIGNANKLWVTVYYGVPVWKEAETTLFCASDAKAYNTEVHNVWATHACVPTDPDPREIPLENVTEEFNIWKNDMVEQMHQDIISLWDQSLKPCVKLTPLCVTLNCTNATPINATGSIEGNSTDMKNCSFNVTTIRRDKMQKEYALFYNLDIVQIDDSDNSSYRLVSCNTSVITQACPKVSFEPIPIHYCAPAGFAIIKCNNKTFNGTGPCTNVSTVQCTHGIKPVVSTQLLLNGSLAEEKIMIRSENITNSAKTIIVQLNESVTINCTRPGNNTRKSIRIGPGQTYYATGAIIGDIRQAHCNVSKEKWMSTLQKVAKQLGEHFISAQNISFNSSSGGDVEITTHSFICGGEFFYCNTTGLFNSTWMIRNNTWNYNESSSNWTGTITLQCRIKQYVNLWQRVGRAMYAPPIRGDINCTSNITGLLLTRDGGGNNESETFRPIGGDMRDNWRSELYKYKVVKIEPLGVAPTYAKRRVVGREKRAVGLGAVFLGFLGAAGSTMGAASITLTVQARQLLSGIVQQQSNLLQAIEAQQHLLRLTVWGIKQLQARVLALERYLRDQQLLGIWGCSGKLICPTTVPWNSSWSNNKTFNEIWDNMTWLQWDREISNYTEIIYALIEQSQNQQEKNEQDLLALDKWANLWNWFDITNWLWYIKIFIIIVGGLIGLRIVFAVFSLVNRVRQGYSPLSFQILNHRQQEPDRPGRIEEEGGEQDRDRSVRLVSGFLALAWDDLRSLCLFLYHRLRDSVLIATRGVELLGHSILKGLRLGWEALKHLWNLLSYWSQELKNSAISLFDTIAIAVANWTDRAIELGQAAGRAILHIPRRIRQGLERALL
# Target: antibody 10-1074
# Assay: neutralization IC50; higher = virus less sensitive to the antibody
# Description: (§1)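 Pseudovirus bearing the Env chain mixed with antibody, from 50 µg/ml in fivefold dilutions, on TZM-bl reporter cells, in duplicate.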
row,Binder,neutralization IC50
1,B1,0.038 mg/L
2,B2,0.001 mg/L
3,B3,3.13 mg/L
4,B4,0.078 mg/L
5,B5,0.077 mg/L
6,B6,0.013 mg/L

# Target: antibody 3BNC117
# Assay: as above
# Description: as §1
row,Binder,neutralization IC50
1,B1,0.433 mg/L
2,B2,2.25 mg/L
3,B3,0.22 mg/L
4,B4,0.257 mg/L
5,B5,0.416 mg/L
6,B6,4.76 mg/L

# Target: antibody 10-1074
# Assay: neutralization IC80; higher = virus less sensitive to the antibody
# Description: as §1
row,Binder,neutralization IC80
1,B1,0.13 mg/L
2,B2,0.005 mg/L
3,B3,29.7 mg/L
4,B4,0.262 mg/L
5,B5,0.366 mg/L
6,B6,0.037 mg/L

# Target: antibody 3BNC117
# Assay: as above
# Description: as §1
row,Binder,neutralization IC80
1,B1,0.932 mg/L
2,B2,> 50 mg/L
3,B3,0.767 mg/L
4,B4,0.524 mg/L
5,B5,0.947 mg/L
6,B6,> 50 mg/L
